Anti-infective test results gathered from many reports (values: NIAID ChemDB through PubChem).

All rows: whole-cell or culture tests; agent: HIV-1

Two numbers with a dash give a range or band. Neighbouring rows are from separate reports. Blank or dashed fields: not listed here. ECn: concentration that inhibits the pathogen or its effect by n%.

SMILES | endpoint | method | cell line | conditions | strain or isolate | changes | value
COc1ccc(/C=C/C(=O)c2c(O)c3c(C)ccc(C(C)C)c3oc2=O)cc1OC | EC50 | virus yield | MT-4 |  | IIIB |  | >28.15 µg/mL
COC(=O)[C@@H](NP(=O)(OC[C@@H]1C=C[C@H](n2cc(C)c(=O)[nH]c2=O)O1)Oc1ccccc1)c1ccccc1 | EC50 |  | CEM |  |  |  | 15.3 µM
CC(C)C1=C2[C@H]3CC[C@@H]4[C@@]5(C)CC[C@H](OC(=O)[C@H]6C[C@@H](C(=O)O)C6(C)C)C(C)(C)[C@@H]5CC[C@@]4(C)[C@]3(C)CC[C@@]2(CCNCC(F)(CN)NC(=O)c2ccc(Cl)cc2)CC1=O | EC50 | p24 / ELISA | MT-2 |  | 92HT599 |  | <1 µM
Fc1cccc(C2SCc3nc4cc5ccccc5cc4n32)c1 | EC50 |  | CEM + CEM-SS |  | RF |  | >200 µM
Cc1ccc(-n2c(C)nnc2SCC(=O)Nc2cccc(Cl)c2Cl)cc1 | EC50 | luciferase | HeLa + HeLa-JC53 |  | NL4-3 | RT-K103N Y181C | 0.11 µM
Cc1cn([C@H]2C[C@H](O)[C@@H](COC(=O)CCCCC(=O)O)O2)c(=O)[nH]c1=O | EC50 | cytopathic effect / XTT | MT-4 |  |  |  | >100 µg/mL
CC(C)C1=C2[C@H]3CC[C@@H]4[C@@]5(C)CC[C@H](OC(=O)[C@H]6C[C@@H](C(=O)O)C6(C)C)C(C)(C)[C@@H]5CC[C@@]4(C)[C@]3(C)CC[C@@]2(CCNCC(C)(C)NC(=O)c2nc3ccccc3[nH]2)CC1=O | EC50 | p24 / ELISA | MT-2 |  | 92HT599 |  | <1 µM
Cc1nnc(SCC(=O)Nc2ccc(S(N)(=O)=O)cc2Cl)n1-c1cccc2ccccc12 | EC50 | luciferase | HeLa + HeLa-JC53 |  | NL4-3 | RT-Y188L | 0.19 µM
CC(C)C1=C2[C@H]3CC[C@@H]4[C@@]5(C)CC[C@H](OC(=O)[C@H]6C[C@@H](C(=O)O)C6(C)C)C(C)(C)[C@@H]5CC[C@@]4(C)[C@]3(C)CC[C@@]2([C@@H](O)CNCC(C)(C)NC(=O)c2ccc(C(F)(F)F)cc2)CC1=O | EC50 | p24 / ELISA | MT-2 |  | 92HT599 |  | <1 µM
C=C(C)[C@@H]1CC[C@]2(C(=O)O)CC[C@]3(C)[C@H](CC[C@@H]4[C@@]5(C)CC[C@H](OC(=O)CC(C)(C)CC(=O)O)C(C)(C)[C@@H]5CC[C@]43C)[C@@H]12 | EC50 | p24 / ELISA | H9 |  | IIIB |  | 0.0023 µM
COc1cc2c(c(O)c1OC)-c1c(cc(OC)c(OC)c1O)C[C@H](C)[C@H](C)C2 | EC50 | p24 | C8166 |  | IIIB |  | 47.5 µM
N#Cc1cc(Cl)cc(Oc2c(Cl)ccc(OCc3[nH]nc4ncccc34)c2F)c1 | EC50 | cytopathic effect / MTT / absorbance | MT-4 | 10% FBS | HXB2 |  | 0.008 µM
CCCCCCCCCCCCCCCC(=O)NC1C(COP(=O)(O)OC2CC(COP(=O)(O)OC3CC(CO)OC3n3cnc4c(N)ncnc43)OC2n2cnc3c(N)ncnc32)OC(n2cnc3c(N)ncnc32)C1O | EC50 | syncytia |  |  |  |  | <100 µM
CC(C)C1=C2[C@H]3CC[C@@H]4[C@@]5(C)CC[C@H](OC(=O)[C@H]6C[C@@H](C(=O)O)C6(C)C)C(C)(C)[C@@H]5CC[C@@]4(C)[C@]3(C)CC[C@@]2(CC(=O)NCC(C)(C)NC(=O)CN(C)C)CC1=O | EC50 | p24 / ELISA | MT-2 |  | 92HT599 |  | <1 µM
CNC(=O)c1ccc(F)c2c(C(=O)C(=O)N3CCN(S(=O)(=O)N(C)C)CC3)c[nH]c12 | EC50 | luciferase | HeLa |  | Recombinant |  | <1 µM
Cc1cn([C@H]2C[C@H](O)[C@@H](COC(=O)CCCCCC(=O)O)O2)c(=O)[nH]c1=O | EC50 | cytopathic effect / XTT | MT-4 |  |  |  | >100 µg/mL
N#Cc1cccc(C2SCc3nc4cc5ccccc5cc4n32)c1 | EC50 |  | CEM + CEM-SS |  | RF |  | >200 µM
CCC(=O)Nc1ccn([C@H]2CC[C@@H](COC(=O)CC)O2)c(=O)n1 | EC50 | cytopathic effect |  |  |  |  | >25 µM
COC(=O)[C@H](C)NP(=O)(OC[C@@H]1C=C[C@H](n2cc(C)c(=O)[nH]c2=O)O1)Oc1ccccc1 | EC50 |  | CEM |  |  |  | 0.075 µM
Cc1ccc(C(C)C)c2oc(=O)c(C(=O)/C=C/c3cccc([N+](=O)[O-])c3)c(O)c12 | EC50 | virus yield | MT-4 |  | IIIB |  | >10.9 µg/mL
C=C1CC[C@@H]2C(C)(CO)[C@@H](O)CC[C@@]2(C)[C@@H]1C/C=C1/C(=O)OC[C@@H]1O | EC50 | MTT / ELISA | TZM-bl |  |  |  | 2.75 µM
CC1=C/C(=C\[C@H](C)[C@@]23OC(=O)C[C@]2(C)[C@@]2(C)C[C@]4(O)CC56OC(=O)C[C@@]5(C)O[C@@](C)(CO)[C@]6(C)CC[C@]4(C)[C@@]2(C)O3)OC1=O | EC50 | cytopathic effect |  |  |  |  | >100 µg/mL
C=C1CC[C@@H](OC(C)=O)[C@@]2(C)C[C@@H](OC(C)=O)C3=C(C(C)C)CC[C@]3(C)C[C@]12O | EC50 | MTT | MT-2 |  | IIIB |  | 0.35 µM
Cc1cn([C@H]2C[C@H](N=[N+]=[N-])[C@@H](CO)O2)c(=O)[nH]c1=O | EC50 | syncytia | C8166 |  |  |  | 0.03177 µM
C[C@H]1[C@H](C)CC[C@]2(C(=O)O)CC[C@]3(C)C(=CC[C@@H]4[C@@]5(C)CC[C@H](OC(=O)CC(C)(C)C(=O)O)C(C)(C)[C@@H]5CC[C@]43C)[C@H]12 | EC50 | p24 / ELISA | H9 |  | IIIB |  | 2.1 µM
Cc1ccc2c(-n3c(C)nnc3SCC(=O)Nc3ccccc3Br)ccc(C)c2c1 | EC50 | luciferase | HeLa + HeLa-JC53 |  | NL4-3 | RT-Y188L | 0.15 µM
CCCCCCCCCCCCCCCC(=O)NC1C(COP(=O)(O)OC2C(O)C(COP(=O)(O)OC3CC(CO)OC3n3cnc4c(N)ncnc43)OC2n2cnc3c(N)ncnc32)OC(n2cnc3c(N)ncnc32)C1O | EC50 | p24 |  |  |  |  | >300 µM
CC(C)C1=C2[C@H]3CC[C@@H]4[C@@]5(C)CC[C@H](OC(=O)[C@H]6C[C@@H](C(=O)O)C6(C)C)C(C)(C)[C@@H]5CC[C@@]4(C)[C@]3(C)CC[C@@]2(CCNCC(C)(C)NC(=O)c2ccc(N)nc2)CC1=O | EC50 | p24 / ELISA | MT-2 |  | 92HT599 |  | <1 µM
O=C(O)CCCC(=O)OC[C@H]1O[C@@H](n2cc(-c3cccs3)c(=O)[nH]c2=O)C[C@@H]1O | EC50 | cytopathic effect / XTT | MT-4 |  |  |  | >100 µg/mL
C=Cc1cc(N(CC)CC)nc(S(=O)(=O)Cc2ccc(OC)cc2)n1 | EC50 | cytopathic effect / MTT | MT-4 |  | NNRTI-resistant | RT-K103N | >42.9 µM
CC(C)(C)C(=O)Nc1ccn([C@H]2CC[C@@H](CO)O2)c(=O)n1 | EC50 | cytopathic effect |  |  |  |  | >100 µM
COc1ccnc2[nH]cc(C(=O)C(=O)N3CCN(S(=O)(=O)N(C)C)C[C@H]3C)c12 | EC50 | luciferase | HeLa |  | Recombinant |  | <1 µM
COc1ccc(/C=C/C(=O)c2c(O)c3cc(Cl)c(C)cc3oc2=O)cc1OC | EC50 | virus yield | MT-4 |  | IIIB |  | >59.1 µg/mL
CCc1c(Cc2c(Cl)cccc2Cl)nc(SC/C=C/c2ccc(C#N)cc2)[nH]c1=O | EC50 | cytopathic effect / MTT | MT-4 |  | NNRTI-resistant | RT-Y188L | >34.82 µM
Nc1ncnc2c1ncn2[C@@H]1CC[C@H](CO)O1 | EC50 |  | PBMC |  | LAV |  | >100 µM
COc1ccc(/C=C/C(=O)c2c(O)c3c(C)ccc(C(C)C)c3oc2=O)cc1 | EC50 | virus yield | MT-4 |  | IIIB |  | >125 µg/mL
CCN(CC)S(=O)(=O)N1CCN(C(=O)C(=O)c2c[nH]c3c(C(=O)NC)ccc(F)c23)CC1 | EC50 | luciferase | HeLa |  | Recombinant |  | 1–5 µM
Cc1ccc(-n2c(C)nnc2SCC(=O)Nc2ccccc2-c2ccccc2)cc1 | EC50 | luciferase | HeLa + HeLa-JC53 |  | NL4-3 | RT-K103N Y181C | >10 µM
C[C@]1(CO)[C@@H](Cn2cnc3c(=O)[nH]c(N)nc32)C1(F)F | EC50 |  | CEM |  | RF |  | 95 µM
Cc1cc2oc(=O)c(C(=O)/C=C/c3ccc(N(C)C)cc3)c(O)c2cc1Cl | EC50 | virus yield | MT-4 |  | IIIB |  | >35.23 µg/mL
CC(C)C1=C2[C@H]3CC[C@@H]4[C@@]5(C)CC[C@H](OC(=O)[C@H]6C[C@@H](C(=O)O)C6(C)C)C(C)(C)[C@@H]5CC[C@@]4(C)[C@]3(C)CC[C@@]2(CCNC(=O)c2ccc(Cl)cc2OCCN2CCCCC2)CC1=O | EC50 | p24 / ELISA | MT-2 |  | 92HT599 |  | <1 µM
Cc1cc2oc(=O)c(C(=O)/C=C/c3cccc([N+](=O)[O-])c3)c(O)c2cc1Cl | EC50 | virus yield | MT-4 |  | IIIB |  | >56 µg/mL
C=C(C)[C@@H]1CC[C@]2(C(=O)OC)CC[C@]3(C)[C@H](CC[C@@H]4[C@@]5(C)CC[C@H](NC(=O)CC(C)(C)CC(=O)O)C(C)(C)[C@@H]5CC[C@]43C)[C@@H]12 | EC50 | p24 / ELISA | H9 |  | IIIB |  | 1.16 µM
C[C@]1(CO)[C@H](Cn2cnc3c(=O)[nH]c(N)nc32)C1(F)F | EC50 |  | MT-4 |  | RF |  | >100 µM
Cc1cc2oc(=O)c(C(=O)/C=C/c3ccccc3)c(O)c2cc1Cl | EC50 | virus yield | MT-4 |  | IIIB |  | >3.64 µg/mL
C=C(C)[C@@H]1CC[C@]2(C(=O)O)CC[C@]3(C)[C@H](CC[C@@H]4[C@@]5(C)CC[C@H](OC(=O)COCC(=O)O)C(C)(C)[C@@H]5CC[C@]43C)[C@@H]12 | EC50 | p24 / ELISA | H9 |  | IIIB |  | 0.01 µM
Cc1ccc2c(C)ccc(-n3c(SCC(=O)Nc4ccc(S(N)(=O)=O)cc4Cl)nnc3C(F)(F)F)c2c1 | EC50 | luciferase | HeLa + HeLa-JC53 |  | NL4-3 | RT-Y188L | 0.035 µM
CSC[C@H]1O[C@@H](n2cnc3c(N)ncnc32)[C@H](O)[C@H]1O | EC90 | syncytia | C8166 |  |  |  | >190 µM
COc1cc(/C=C/C(=O)c2c(O)c3c(C)ccc(C(C)C)c3oc2=O)ccc1O | EC50 | virus yield | MT-4 |  | IIIB |  | >15.11 µg/mL
CCc1c(C(C)c2c(F)cccc2F)nc(SC/C=C/c2ccc([N+](=O)[O-])cc2)[nH]c1=O | EC50 | cytopathic effect / MTT | MT-4 |  | NNRTI-resistant | RT-K103N | >575 µM
Cc1cn([C@H]2C[C@H](O)[C@@H](COC(=O)C3CCC(C(=O)O)CC3)O2)c(=O)[nH]c1=O | EC50 | cytopathic effect / XTT | MT-4 |  |  |  | >100 µg/mL
NCCCC(NC(=O)CCCCCCCCN=C(N)N)C(O)CCCCCCCCN=C(N)N | EC50 | RT activity | H9 |  | IIIB |  | ~25 µg/mL
COc1ccc(/C=C/CSc2nc(Cc3c(F)cccc3F)c(C)c(=O)[nH]2)cc1 | EC50 | cytopathic effect / MTT | MT-4 |  | NNRTI-resistant | RT-Y181C | >393 µM
O=C(Cc1nc2ccccc2[nH]1)c1ccc(O)cc1O | EC50 | cytopathic effect | MT-4 |  | IIIB |  | 321 µM
Cc1nnc(SCC(=O)Nc2ccccc2Br)n1-c1ccc(Cl)c2ccccc12 | EC50 | luciferase | HeLa + HeLa-JC53 |  | NL4-3 | RT-K103N Y181C | 0.13 µM
Cc1cn([C@H]2C[C@H](N=[N+]=[N-])[C@@H](CO)O2)c(=O)[nH]c1=O | EC50 | p24 / ELISA | H9 |  | IIIB |  | 0.045 µM
Cc1ccc(C(C)C)c2oc(=O)c(C(=O)/C=C/c3ccc(N(C)C)cc3)c(O)c12 | EC50 | virus yield | MT-4 |  | IIIB |  | >125 µg/mL
COC(=O)CNP(=O)(OC[C@@H]1C=C[C@H](n2cc(C)c(=O)[nH]c2=O)O1)Oc1ccccc1 | EC50 |  | CEM |  |  |  | 6 µM

The last 6 rows once more:

| SMILES | endpoint | method | cell line | conditions | strain or isolate | changes | value |
|---|---|---|---|---|---|---|---|
| COc1ccc(/C=C/CSc2nc(Cc3c(F)cccc3F)c(C)c(=O)[nH]2)cc1 | EC50 | cytopathic effect / MTT | MT-4 |  | NNRTI-resistant | RT-Y181C | >393 µM |
| O=C(Cc1nc2ccccc2[nH]1)c1ccc(O)cc1O | EC50 | cytopathic effect | MT-4 |  | IIIB |  | 321 µM |
| Cc1nnc(SCC(=O)Nc2ccccc2Br)n1-c1ccc(Cl)c2ccccc12 | EC50 | luciferase | HeLa + HeLa-JC53 |  | NL4-3 | RT-K103N Y181C | 0.13 µM |
| Cc1cn([C@H]2C[C@H](N=[N+]=[N-])[C@@H](CO)O2)c(=O)[nH]c1=O | EC50 | p24 / ELISA | H9 |  | IIIB |  | 0.045 µM |
| Cc1ccc(C(C)C)c2oc(=O)c(C(=O)/C=C/c3ccc(N(C)C)cc3)c(O)c12 | EC50 | virus yield | MT-4 |  | IIIB |  | >125 µg/mL |
| COC(=O)CNP(=O)(OC[C@@H]1C=C[C@H](n2cc(C)c(=O)[nH]c2=O)O1)Oc1ccccc1 | EC50 |  | CEM |  |  |  | 6 µM |